Anti-infective test results gathered from many reports (values: NIAID ChemDB through PubChem).

All rows: whole-cell or culture tests; agent: Mycobacterium tuberculosis

Percent inhibition refers to the dose given; in toxicity tests it is the harm to the cells. MIC bound: limit read from a one-dose screen. Rows are shuffled and stem from different studies. Blank or dashed fields: not listed here. ECn is the concentration giving n% inhibition of infection, replication or growth. Fold resistance: result on the changed form divided by that on wild type. MIC50, MIC90 and the like: level of inhibition, or share of isolates inhibited.

structure	strain	changes	cells	method	conditions	read-out	dose	result
[N-]=[N+]=[N-].[Na+]	H37Rv					MIC		20.32 µg/mL
CC1=C(C(=O)Nc2ccc(C)cc2C)C(c2ccccc2)C(C(=O)Nc2ccc(C)cc2C)=C(C)N1	H37Rv					EC50		>2.5 µg/mL
CCCCN(C(=O)COc1cc2c(O)c3c(O)c(C)c4c(c13)C(=O)[C@@](C)(O/C=C/[C@H](OC)[C@@H](C)[C@@H](OC(C)=O)[C@H](C)[C@H](O)[C@H](C)[C@@H](O)[C@@H](C)/C=C/C=C(/C)C(=O)N2)O4)N(CC)CC						EC50		9.18 µg/mL
CO/C(=N\N=C\c1ccc(OC)cc1OC)c1ccncc1	6 PI					MIC		>20 µg/mL
Clc1ccc(SCCCCn2ccnc2)cc1	H37Rv			turbidity / fluorescence		MIC99		20 µM
O=C(Nc1cccc(F)c1)c1ccccc1O	CNCTC MY 331/8					MIC		31 µM
CO[C@H]1/C=C/O[C@@]2(C)Oc3c(C)c(O)c4c(O)c(cc(OCC(=O)NNC(=O)c5ccncc5)c4c3C2=O)NC(=O)/C(C)=C\C=C\[C@H](C)[C@H](O)[C@@H](C)[C@@H](O)[C@@H](C)[C@H](OC(C)=O)[C@@H]1C						EC50		0.3 µg/mL
O=C(c1ccco1)N1CCN(C(=O)c2ccco2)CC1	H37Rv			BACTEC		inhibition	12.5 µg/mL	0%
O=C(Nc1ccc(Cl)cc1)c1ccccc1O	CNCTC MY 331/8					MIC		31 µM
Cc1cc(NC(=O)C(=O)Cc2nc3ccccc3s2)ccc1Cl	H37Rv			BACTEC		MIC bound		>12.5 µg/mL
Cc1ccc2oc(=O)n(-c3ccc(Br)cc3)c(=O)c2c1	CNCTC MY331/88					MIC		16 µM
C[C@]12CC[C@H](OC3OC(CO)C(O)C(O)C3O)C[C@H]1CC[C@@H]1[C@@H]2CC[C@]2(C)[C@@H](C3=CCOC3=O)CC[C@]12O	H37Rv			BACTEC		MIC bound		>12.8 µg/mL
CO[C@H]1/C=C/O[C@@]2(C)Oc3c(C)c(O)c4c(O)c(cc(OCC(=O)NN5C(=O)CNC5=O)c4c3C2=O)NC(=O)/C(C)=C\C=C\[C@H](C)[C@H](O)[C@@H](C)[C@@H](O)[C@@H](C)[C@H](OC(C)=O)[C@@H]1C						EC50		1.2 µg/mL
COc1ccc2c(N/N=C/c3c(OC)ccc4ccccc34)ccnc2c1	H37Rv		VERO			inhibition	12.5 µg/mL	100%
COc1ccc(O)c(C(=S)NCc2ccccc2)c1	My 331/88					MIC		2 µg/mL
Cc1nc(C(=O)NN)co1	H37Rv			BACTEC		MIC bound		>12.5 µg/mL
CCN(CC)N(C)C(=O)COc1cc2c(O)c3c(O)c(C)c4c(c13)C(=O)[C@@](C)(O/C=C/[C@H](OC)[C@@H](C)[C@@H](OC(C)=O)[C@H](C)[C@H](O)[C@H](C)[C@@H](O)[C@@H](C)/C=C/C=C(/C)C(=O)N2)O4						EC50		0.37 µg/mL
COc1cccc(NC(=O)CC(=O)N2NC(c3ccccc3)C(N=Nc3cccc(C(=O)O)c3)C2=O)c1	H37Rv			BACTEC		MIC bound		>12.5 µg/mL
CC1(C)CC(N=c2cc3n(-c4ccccc4Cl)c4ccccc4nc-3cc2Nc2ccccc2Cl)CC(C)(C)N1	H37Rv		Macrophages		inside macrophages	EC50		<0.005 µg/mL
Oc1ccccc1C(=S)NCc1cccc(Cl)c1	My 331/88					MIC		1 µg/mL
CCc1nc2ccc(C)cc2n1CCCCOc1ccccc1	H37Rv	Rv1339 V90M		turbidity / fluorescence		MIC90		1.7 µM
CC[C@@H](CO)NCCN[C@@H](CC)CO	H37Rv					MIC		3.465 µg/mL
CC1=C(C(=O)Nc2ccc(C)cc2C)C(c2cccc([N+](=O)[O-])c2)C(C(=O)Nc2ccc(C)cc2C)=C(C)N1	H37Rv					inhibition	2.5 µg/mL	53%
O=C(NNCc1ccccc1F)c1ccncc1	H37Rv (rifampin-resistant)					MIC		1.95 µg/mL
CC(C)(C)c1ccc(CNC(=S)c2ccccc2O)cc1	My 331/88					MIC		1 µg/mL
O=C(O)c1cn(C2CC2F)c2c(Cl)c(N3CC4CCCNC4C3)c(F)cc2c1=O	44 (RFP-resistant)					MIC		0.025 µg/mL
CO[C@H]1/C=C/O[C@@]2(C)Oc3c(C)c(O)c4c(O)c(c(/C=N/N5CCN(C6CCCC6)CC5)c(O)c4c3C2=O)NC(=O)/C(C)=C\C=C\[C@H](C)[C@H](O)[C@@H](C)[C@@H](O)[C@@H](C)[C@H](OC(C)=O)[C@@H]1C	Isolate 920492 rifampicin-resistant					MIC		>32 µg/mL
O=C(Nc1ccc(Cl)cc1)c1ncccc1S	CNCTC MY 331/8					MIC		32 µM
O=C(NNCc1ccccc1)c1ccncc1	H37Rv (thiacetazone-resistant)					MIC		>31.25 µg/mL
O=C(Nc1cccc(Cl)c1)c1ncccc1O	CNCTC MY 331/8					MIC		62.5 µM
NNc1ccnc2cc(Cl)cc(Cl)c12	H37Rv		VERO			inhibition	12.5 µg/mL	82%
Cc1nc2ccc(NCCN(C)C)c3c(=O)c4cc(O)ccc4n1c23	H37Rv			BACTEC		MIC bound		>12.5 µg/mL
Cc1cc(NN)c2ccc(Cl)cc2n1	H37Rv		VERO			inhibition	12.5 µg/mL	97%
CC/C(=N\NC(=O)c1ccncc1)c1ccc(Cl)cc1	H37Rv			resazurin		inhibition	6.25 µg/mL	97%
CO[C@H]1/C=C/O[C@@]2(C)Oc3c(C)c(O)c4c(O)c(cc(OCC(=O)NNc5ccc(C)cc5)c4c3C2=O)NC(=O)/C(C)=C\C=C\[C@H](C)[C@H](O)[C@@H](C)[C@@H](O)[C@@H](C)[C@H](OC(C)=O)[C@@H]1C						EC50		0.001 µg/mL
NC(=O)c1n[nH]c([C@@H]2O[C@H](CO)[C@@H](O)[C@H]2O)n1	H37Rv			BACTEC		MIC bound		>12.5 µg/mL
CCc1nc2ccc(C)cc2n1CCCCNc1ccc(C)cc1	H37Rv	QcrB M342T		turbidity / fluorescence		fold resistance		55
COc1ccc(-n2c(=O)oc3cc(C)ccc3c2=O)cc1	CNCTC MY331/88					MIC		16 µM
Cc1cc2c(cc1C)[n+](=O)c(C(=O)C/C(=N\NC(=O)CC#N)C(=O)Nc1ccccc1C(F)(F)F)c(C)n2[O-]	H37Rv			BACTEC		MIC		≥12.5 µg/mL
COc1ccc(/C=N/Nc2ccnc3ccccc23)c2ccccc12	H37Rv		VERO			inhibition	12.5 µg/mL	100%
Cc1ccc2oc(=O)n(-c3ccc(Cl)c(Cl)c3)c(=O)c2c1	CNCTC MY331/88					MIC		8 µM
CO[C@H]1/C=C/O[C@@]2(C)Oc3c(C)c(O)c4c(O)c(cc(OCC(=O)N(C)N(C)C)c4c3C2=O)NC(=O)/C(C)=C\C=C\[C@H](C)[C@H](O)[C@@H](C)[C@@H](O)[C@@H](C)[C@H](OC(C)=O)[C@@H]1C						EC50		0.18 µg/mL
CO/C(=N\N=C\c1cccc(F)c1)c1ccncc1	H37Rv					MIC		>20 µg/mL
Oc1ccc(Cl)cc1C(=S)NCc1ccc(Br)cc1	My 331/88					MIC		1 µg/mL
c1ccc2c(c1)Nc1ccc3ccccc3c1S2	H37Rv			BACTEC		inhibition	12.5 µg/mL	94%
Cc1ccc(O)c(C(=S)NCc2ccc(Cl)cc2)c1	My 331/88					MIC		0.5 µg/mL
C=C(C)C1CC=C(C)/C(=N/NC(=O)c2cccnc2)C1	RMP-R					MIC		0.2 µg/mL
CCC1CN(c2c(F)cc3c(=O)c(C(=O)O)cn([C@@H]4C[C@@H]4F)c3c2OC)CCN1	44 (RFP-resistant)					MIC		0.25 µg/mL
O=C(Nc1ccc(N=Nc2ccc(S(=O)(=O)[O-])cc2)cc1)c1ccc(N=Nc2c(S(=O)(=O)[O-])cc(O)c3c(NC(=O)c4ccccc4)cc(S(=O)(=O)[O-])cc23)cc1.[Na+].[Na+].[Na+]	H37Rv			BACTEC		inhibition	12.5 µg/mL	0%
C/C(=N\NC(=O)c1ccncc1)c1ccc(F)cc1	H37Rv (ethambutol-resistant)					MIC		2 µg/mL
CC1=C(C(=O)Nc2ccc([N+](=O)[O-])cc2)C(c2ccccc2Cl)C(C(=O)Nc2ccc([N+](=O)[O-])cc2)=C(C)N1	H37Rv					inhibition	2.5 µg/mL	95%
O=C1C=C(Nc2cccc(Cl)c2)c2ccccc2C1=O	H37Rv			resazurin		MIC bound		<6.25 µg/mL
CC(C)OC(=O)c1cc[n+](CC(=O)c2ccccc2)cc1.[Br-]	H37Rv			resazurin		MIC		0.5 µg/mL
Cc1ccc(NC(=S)NC(=O)C(C)Oc2ccccc2)cc1Cl	H37Rv			BACTEC		MIC		12.5 µg/mL
Cc1cccc(O)c1C(=O)NCc1ccccc1	My 331/88					MIC		62.5 µg/mL
O=C(N/N=C/c1ccccc1F)c1ccncc1	Isoniazid-resistant					MBC		>1.6 µg/mL
CCc1nc2ccc(C)cc2n1CCCSc1ccc(OC)cc1	H37Rv	Rv1339 V90M		turbidity / fluorescence		fold resistance		1.5
COc1ccc(-n2c(=O)oc3ccccc3c2=O)cc1	CNCTC MY331/88					MIC		62 µM
Cc1c(N2C[C@@H](N)C3(CC3)C2)c(F)cc2c(=O)c(C(=O)O)cn([C@@H]3C[C@@H]3F)c12	44 (RFP-resistant)					MIC		0.05 µg/mL
CC1(C)CC(N=c2cc3n(-c4cc(Cl)c(Cl)c(Cl)c4)c4ccccc4nc-3cc2Nc2cc(Cl)c(Cl)c(Cl)c2)CC(C)(C)N1	H37Rv		Macrophages		inside macrophages	MIC		0.015 µg/mL
O=C(NCc1cccc(Br)c1)c1ccc(Br)cc1O	My 331/88					MIC		32 µg/mL
CC(NNC(=O)c1ccncc1)c1cccc(C(F)(F)F)c1	Rifampicin-resistant					MIC		3.13 µg/mL
S=C(NCc1ccccc1)[S][Sn]([S]C(=S)NCc1ccccc1)([c]1ccccc1)[c]1ccccc1	H37Rv			BACTEC		MIC		32 µg/mL
C/C(=N\NC(=O)c1ccncc1)c1cccc(Cl)c1	16PI					MIC		>20 µg/mL
CCN(C(=O)COc1cc2c(O)c3c(O)c(C)c4c(c13)C(=O)[C@@](C)(O/C=C/[C@H](OC)[C@@H](C)[C@@H](OC(C)=O)[C@H](C)[C@H](O)[C@H](C)[C@@H](O)[C@@H](C)/C=C/C=C(/C)C(=O)N2)O4)N(C)C						EC50		0.18 µg/mL
CCOC(=O)C(NC(=O)CC(C)C)(N1CCN(c2cc3c(cc2F)c(=O)c(C(=O)O)cn3C2CC2)CC1)C(F)(F)F	H37Rv			resazurin		MIC		0.78 µg/mL
CCc1nc2ccccc2n1CCCCSc1ccc2ccccc2c1	H37Rv			turbidity / fluorescence		MIC99		4.1 µM
CC(C)CC(=O)N[C@H](C(=O)N[C@H](C(=O)N[C@@H](CC(C)C)[C@@H](O)CC(=O)N[C@@H](C)C(=O)N[C@@H](CC(C)C)[C@@H](O)CC(=O)O)C(C)C)C(C)C	H37Rv			BACTEC		MIC		≥12.5 µg/mL
CCc1nc2ccc(C)cc2n1CCCCSc1ccc(OC)cc1	H37Rv	QcrB M342T		turbidity / fluorescence		fold resistance		10
O=C1C2=C(c3ccccc31)C(c1ccccc1Cl)N1C(=O)CCSC1=N2	H37Rv			BACTEC		inhibition	12.5 µg/mL	0%
C/C(=N\NC(=O)c1ccncc1)c1cccc(C(F)(F)F)c1	16PI					MIC		>20 µg/mL
CCC(=O)N1C(=O)C(C)C23c4cccc([N+](=O)[O-])c4C(=O)N2CCCN13	H37Rv			BACTEC		MIC bound		>12.8 µg/mL
COc1ccc(NC(=O)c2ccccc2O)cc1	CNCTC MY 331/8					MIC		62.5 µM
CCCCCN(C(=O)COc1cc2c(O)c3c(O)c(C)c4c(c13)C(=O)[C@@](C)(O/C=C/[C@H](OC)[C@@H](C)[C@@H](OC(C)=O)[C@H](C)[C@H](O)[C@H](C)[C@@H](O)[C@@H](C)/C=C/C=C(/C)C(=O)N2)O4)N(C)C						EC50		0.18 µg/mL
COc1c(N2CC[C@@H](C(C)(C)N)C2)c(F)cc2c(=O)c3c(=O)[nH]sc3n(C3CC3)c12	ATCC35801					MIC		0.06 µg/mL
CC(NNC(=O)c1ccncc1)c1cccc(F)c1	H37Rv					MIC		1.6 µg/mL
C[N+](C)=c1ccc2nc3c(cc(N)c4ccccc43)oc-2c1	H37Rv					MIC		0.03 µg/mL
COc1ccccc1NC(=O)C1=C(C)NC(C)=C(C(=O)Nc2ccccc2OC)C1c1cccc([N+](=O)[O-])c1	H37Rv					inhibition	2.5 µg/mL	64%

For reference, 8 entries again:

structure	strain	changes	cells	method	conditions	read-out	dose	result
S=C(NCc1ccccc1)[S][Sn]([S]C(=S)NCc1ccccc1)([c]1ccccc1)[c]1ccccc1	H37Rv			BACTEC		MIC		32 µg/mL
CC1=C(C(=O)Nc2ccc(C)cc2C)C(c2ccccc2)C(C(=O)Nc2ccc(C)cc2C)=C(C)N1	H37Rv					EC50		>2.5 µg/mL
CO/C(=N\N=C\c1ccc(OC)cc1OC)c1ccncc1	6 PI					MIC		>20 µg/mL
C/C(=N\NC(=O)c1ccncc1)c1cccc(C(F)(F)F)c1	16PI					MIC		>20 µg/mL
CCCCN(C(=O)COc1cc2c(O)c3c(O)c(C)c4c(c13)C(=O)[C@@](C)(O/C=C/[C@H](OC)[C@@H](C)[C@@H](OC(C)=O)[C@H](C)[C@H](O)[C@H](C)[C@@H](O)[C@@H](C)/C=C/C=C(/C)C(=O)N2)O4)N(CC)CC						EC50		9.18 µg/mL
CCc1nc2ccc(C)cc2n1CCCCNc1ccc(C)cc1	H37Rv	QcrB M342T		turbidity / fluorescence		fold resistance		55
CO[C@H]1/C=C/O[C@@]2(C)Oc3c(C)c(O)c4c(O)c(cc(OCC(=O)N(C)N(C)C)c4c3C2=O)NC(=O)/C(C)=C\C=C\[C@H](C)[C@H](O)[C@@H](C)[C@@H](O)[C@@H](C)[C@H](OC(C)=O)[C@@H]1C						EC50		0.18 µg/mL
c1ccc2c(c1)Nc1ccc3ccccc3c1S2	H37Rv			BACTEC		inhibition	12.5 µg/mL	94%